System: MDCK cells
Assay: Cellular uptake by fluorescence microscopy
Conditions: 30 μM compound, phenol red-free medium, 60-360 min, about 20 cells per time point

With (±)-Naringenin [reference compound] the “Fluorescence intensity (intracellular uptake)” value was “low fluorescence intensity”.

Reference: article PMC9785311, “Effect of Structural Differences in Naringenin, Prenylated Naringenin, and Their Derivatives on the Anti-Influenza Virus Activity and Cellular Uptake of Their Flavanones” (Pharmaceuticals, 2022)
